Laboratory results published in ChEMBL document CHEMBL1125873 (J Med Chem, 1991).

Key:
[1] = Loss of first equivalent halide ion using Chloride ion electrode experiments.; type: ADME
[2] = Half-life value of the compound.; type: ADME

SMILES | k x10e3 [1] | T1/2 [2]
CN(CCBr)P(=O)(O)OCC1CCCC1 | 131 min⁻¹ | 5.3 min
NP(=O)(O)N(CCCl)CCCl | 41 min⁻¹ | 17 min
O=P(O)(OCC1CCCC1)N(CCBr)CCBr | 58 min⁻¹ | 12 min
O=P(O)(OCC1CCCC1)N(CCCl)CCCl | 3 min⁻¹ | 230 min
CN(CCCl)P(=O)(O)OCC1CCCC1 | 13 min⁻¹ | 54 min
